Source: patent US20260275319A1, “ARCHAEAL PEPTIDE RECOMBINASE – A NOVEL PEPTIDE LIGATING ENZYME” (MAX-PLANCK-GESELLSCHAFT ZUR FÖRDERUNG DER WISSENSCHAFTEN …, priority 2019, published 2026)

Tested on: M. mazei Adriase
Experiment: Pulldown of M. mazei whole cell extract with bead-coupled tagged M. mazei Adriase, LC-MS/MS of eluate
Settings: for Intensity (Experiment 2.3): bait Adriase coupled via C-terminal HA-tag; for Intensity (Experiment 2.2): bait Adriase coupled via C-terminal Myc-tag; for Intensity (Experiment 2.1): bait Adriase coupled via C-terminal Strep-tag

Row | Molecule | Intensity (Experiment 2.3) [arbitrary units] | Intensity (Experiment 2.2) [arbitrary units] | Intensity (Experiment 2.1) [arbitrary units]
1 | MtrB: subunit of the M. mazei MtrA-MtrH complex detected in pulldown (protein, UniProt P80655 2-108, looked up) Tetrahydromethanopterin …: SIVRIAPEINLVMDTESGTVTQERKDSIQYSMEPVFERVDKLDAIADDLVNSLSPSKPLLNTWPGRENTSYIAGIYSNSFYGIIVGLAFSGLLALIIYITRLMGGVV | 6.2E+06 | 3.2E+06 | 1.4E+06
2 | M. mazei Adriase: Methanosarcina mazei Adriase (MM_2909), archaeal peptide recombinase, C-terminal His6-tag; Strep-, Myc-, HA-tagged versions used as pulldown bait (protein, C-terminal His6-tag; M. mazei Adriase with C-terminal His-tag, Methanosarcina mazei Adriase (MM_2909), archaeal peptide recombinase, C-terminal His6-tag; Strep-, Myc-, HA-tagged versions used as pulldown bait) TLVIAFIGKNGAVMAGDMREITFEGEKPDREKLEKELYSGSIVTDEEMQKKAEEFGVKITVADCKEKVSERNGVLVGEVSSAEGGVVKKRRLYASAGNFAIAELINTEMTLTSQGKGSNFIAFGNEFTKQVANKCFKDNWTKKSNLQDAVKILILCMETVARKTASVSKQFMIVQTASNADVLKVVEKDRNCGSHHHHHH | 2.1E+10 | 6.8E+09 | 6.4E+09
3 | MtrF: subunit of the M. mazei MtrA-MtrH complex detected in pulldown (protein, UniProt P80654 2-72, looked up) Tetrahydromethanopterin …: AEEHEKGVPMVLAPQMGAIDATVESIRYRAQLIARNQKLDSGVAATGIIGFAAGFLFSLLMVIVLPVAVGL | 4.3E+05 | – | –
